The target of experiment [1] is T1, SARS-CoV-2 BA.2 RBD (SARS-CoV-2 BA.2).
T1 construct: domain: RBD
Kind of experiment: RBD binding affinity (SPR, see Example 5).

Experiment [2] has as its target T2, SARS-CoV-2 BQ.1.1 RBD (SARS-CoV-2 BQ.1.1).
T2 construct: domain: RBD
Kind of experiment: RBD binding affinity (SPR, see Example 5).

Experiment [3] has as its target T3, SARS-CoV-2 BA.2.75.2 RBD (SARS-CoV-2 BA.2.75.2).
T3 construct: domain: RBD
Kind of experiment: RBD binding affinity (SPR, see Example 5).

Experiment [4] addresses T4, SARS-CoV-2 BA.4/5 RBD (SARS-CoV-2 BA.4/5).
T4 construct: domain: RBD
The experiment is described as follows: RBD binding affinity (SPR, see Example 5).

Experiment [5] has as its target T5, SARS-CoV-2 BA.2.75 RBD (SARS-CoV-2 BA.2.75).
T5 construct: domain: RBD
The experiment is described as follows: RBD binding affinity (SPR, see Example 5).

For experiment [6], the target named is T6, SARS-CoV-2 BA.4.6 RBD (SARS-CoV-2 BA.4.6).
T6 construct: domain: RBD
The experiment is described as follows: RBD binding affinity (SPR, see Example 5).

Experiment [7] deals with T7, SARS-CoV-2 XBB.1.5 RBD (SARS-CoV-2 XBB.1.5).
T7 construct: domain: RBD
The experiment is described as follows: RBD binding affinity (SPR, see Example 5).

Experiment [8] deals with SARS-CoV-2 XBB.1.5 S glycoprotein (SARS-CoV-2 XBB.1.5). The experiment is described as follows: cell-based or functional assay.

B1: S3L17 (antibody, V domains shown)
VH: EVQLVESGGGLVQPGGSLRLSCAASEIIVSSNYMNWVRQAPGKGLEWVSVIYAGGSTFYADSVRGRFTISRDNSKNTLYLQMNSLRPDDTAIYYCARDLGPWGMDVWGQGTTVTVSS
VL: DIQMTQSPSSLSASVGDRVAITCRASHGINNDLAWYQQKPGKVPKLLIYAASTLQSGVPSRFSGSGSGTDFTLTISSLQPEDVATYYCQHYSSDPRFTFGPGTKVDIK
In general, Kd refers to the constant that tells how readily two partners part at equilibrium. A low value points to a tighter complex. For the molecule B1, the Kd came to 0.18 nM in experiment [1]; 1.26 nM in experiment [2]; 1.29 nM in experiment [3]; 0.08 nM in experiment [4]; 0.27 nM in experiment [5]; 0.05 nM in experiment [6].

B2: S2V29-v1.2 (antibody, V domains shown)
VH: EVQLVESGGSVVQPGRALRLSCAASGITFSSFGMYWVRQAPGKGLEWLGVIAYDGSNTYYADSVKGRFTISRDNSKNTLYLQMNSLRIEDTAVYYCAKDYYPLLSYYYGLDVWGQGTTVTVSS
VL: QSVLTQPRSVSGSPGQSVTISCTGTSSDVGAYNYVSWYQQHPGKAPKFMIYDVDQRPSGVPDRFSGSKSGNTASLIISGLQAEDEADYYCSSYAGSYIWVFGGGTQLTVL
As to B2, the Kd was 0.02 nM in experiment [1]; under 0.02 nM in experiment [2]; under 0.02 nM in experiment [3]; 0.04 nM in experiment [4]; 0.03 nM in experiment [5]; under 0.02 nM in experiment [6].

B3: S2V29-v37.2 (antibody, V domains shown)
VH: EVQLVESGGSVVQPGRALRLSCAASGITFSSFGMYWVRQAPGKGLEWLGYIAYDGSDTYYADSVKGRFTISRDNSKNTLYLQMNSLRIEDTAVYYCAKDYYPLLSYYYGLDVWGQGTTVTVSS
VL: QSVLTQPRSVSGSPGQSVTISCTGTSSDVGAYNYVSWYQQHPGKAPKFMIYDVDQRPSGVPDRFSGSKSGNTASLIISGLQAEDEADYYCSSYAGSYIWVFGGGTQLTVL
Broadly, the IC50 is the concentration at which inhibition is half-maximal. Consider B3, for which the Kd in experiment [1] turned out to be 0.37 nM; in experiment [2], 0.08 nM; in experiment [4], 0.2 nM; in experiment [7], 0.07 nM. Further, half-maximal inhibition in experiment [8] (IC50) was put at 3.4 ng/mL.

The values above are taken from US20260274928A1 (VIR BIOTECHNOLOGY, published 2026).
